Results of unrelated studies side by side (data: NIAID ChemDB).

All rows: tests in culture; organism: Hepatitis B virus; method: ELISA / antigen; endpoint: EC50

ECn is the concentration giving n% inhibition of infection, replication or growth. Lines come from different laboratories, so protocols vary. Blank or dashed fields: not listed here.

compound	strain or isolate	cells	result
CN1[C@H](C(=O)Nc2ccc(F)c(Cl)c2)C[C@H](c2ncc(-c3cn(C)cn3)s2)NS1(=O)=O	Genotype D	HepG2-NTCP	0.719 µM
C/C=C(/C)C(=O)Oc1c(OC)c(OC)cc2c1-c1c(cc(OC)c(OC)c1OC)C[C@H](C)[C@H](C)C2	-	HepG2.2.15	11.21 µg/mL
C=C(C)[C@H](CC)CC[C@@H](C)[C@H]1CCC2C3C(=O)C=C4C[C@@H](O)CC[C@]4(C)C3CC[C@@]21C	-	HepG2.2.15	49.6 µM
CO[C@@]12C[C@@H](C(=O)O[C@@H]3C[C@H](O)[C@@H](O)[C@H](O)[C@H]3OC3O[C@H](CO)[C@@H](O)[C@H](O)[C@H]3O)C[C@H](O)[C@]1(O)[C@@H](O)[C@]1(C[C@H](OC(=O)c3ccc(O)cc3)[C@H](C)CO1)O2	-	HepG2 2.2.15	25.9 µM
C=C(C)[C@@H](CC)CC[C@@H](C)[C@H]1CCC2C3C[C@@H](O)[C@@]4(O)C[C@@H](O)CC[C@]4(C)C3CC[C@@]21C	-	HepG2.2.15	21.8 µM
CC(=O)N[C@H]1C(O[C@@H]2[C@@H](O)[C@H](O)[C@@H](O)C[C@H]2OC(=O)[C@H]2C[C@H](O)[C@@]3(O)[C@@H](C2)O[C@@]2(C[C@H](OC(=O)c4ccc(O)cc4)[C@H](C)CO2)[C@@H]3O)O[C@H](CO)[C@@H](O)[C@@H]1O	-	HepG2 2.2.15	12.5 µM
C/C=C(/C)C(=O)Oc1c2c(cc3c1-c1c(cc(OC)c(OC)c1OC)C[C@](C)(O)[C@@H](C)C3)OCO2	-	HepG2.2.15	32.89 µg/mL
C=C(C)[C@H](CC)CC[C@@H](C)C1CCC2C3CC=C4C[C@@H](O)CC[C@]4(C)C3CC[C@@]21C	-	HepG2.2.15	47.7 µM
OC[C@H]1O[C@@H](OCCc2ccc(O)c(O)c2)[C@H](O)[C@@H](O[C@@H]2OC[C@](O)(CO)[C@H]2O)[C@@H]1O	-	HepG2.2.15	70 µM
C[C@@H]1CO[C@@]2(C[C@@H]1OC(=O)c1ccc(O)cc1)O[C@]1(O)C[C@@H](C(=O)O[C@@H]3C[C@H](O)[C@@H](O)[C@H](O)[C@H]3OC3O[C@H](CO)[C@@H](O)[C@H](O)[C@H]3O)C[C@H](O)[C@]1(O)[C@H]2O	-	HepG2 2.2.15	22.2 µM
C[C@H](Cn1cnc2c(N)ncnc21)OCP(=O)(O)O	-	HepG2.2.15	23.13 µg/mL
Nc1ccn([C@@H]2CS[C@H](CO)O2)c(=O)n1	-	HepG2.2.15	870 µM
C[C@@H]1CO[C@@]2(C[C@@H]1OC(=O)c1ccc(O)cc1)O[C@]1(O)C[C@@H](C(=O)O[C@@H]3C[C@H](O)[C@@H](O)[C@H](O)[C@H]3OC3O[C@H](CO)[C@@H](O)[C@H](O)[C@H]3OC3O[C@H](CO)[C@@H](O)[C@H](O)[C@H]3O)C[C@H](O)[C@]1(O)[C@H]2O	-	HepG2 2.2.15	25.9 µM
C[C@H]1OC(=O)[C@@H](O)CC2[C@]3(C)CC[C@@]4(CC(=O)O)C5CC(C)(C)CC[C@]5(C)CC[C@]4(C)C3CC[C@@]21C	-	HepG2.2.15	8 µM

For reference, 2 entries again:

compound	strain or isolate	cells	result
C[C@H]1OC(=O)[C@@H](O)CC2[C@]3(C)CC[C@@]4(CC(=O)O)C5CC(C)(C)CC[C@]5(C)CC[C@]4(C)C3CC[C@@]21C	-	HepG2.2.15	8 µM
OC[C@H]1O[C@@H](OCCc2ccc(O)c(O)c2)[C@H](O)[C@@H](O[C@@H]2OC[C@](O)(CO)[C@H]2O)[C@@H]1O	-	HepG2.2.15	70 µM